Results of unrelated studies side by side (data: NIAID ChemDB).

All rows: growth or infection tests; organism: Herpes simplex virus 1; cells: HEL; endpoint: EC50

Neighbouring rows are from separate reports. Blank or dashed fields: not listed here. ECn is the concentration giving n% inhibition of infection, replication or growth.

| compound | strain | mutations | read by | result |
|---|---|---|---|---|
| CCCCCCCCCCC#Cc1c[nH]c(=O)[nH]c1=O | KOS | - | cytopathic effect | >40 µM |
| O=c1[nH]c(=O)n(C[C@]2(CO)C[C@H]2CO)cc1/C=C/Cl | - | - | plaque count | 0.7 µg/mL |
| Nc1ncnc2c1ncn2[C@@H]1C[C@H](CO)[C@@H](O)[C@@H]1O | VR-3 | - | plaque count | 18 µM |
| Cc1cn([C@@]2(C#N)C[C@H](O)[C@@H](CO)S2)c(=O)[nH]c1=O | - | - | cytopathic effect | 20 µg/mL |
| CCCCCCCC/C=C/CCCCCCCC(=O)O | B2006 (TK-) | - | cytopathic effect | >100 µM |
| Cc1c(O)c(=O)ccn1[C@@H]1CS[C@@H](CO)O1 | TK- | - | cytopathic effect | 85 µM |
| C/C(=N/Nc1nc(-c2ccc(Cl)cc2)cs1)c1ccc(NC(=O)CN2C(=O)c3ccccc3S2(=O)=O)cc1 | KOS | - | cytopathic effect | >20 µM |
| O=C(O)CP(=O)(O)O | VR-3 | - | plaque count | 65 µM |
| Nc1nc2c(ncn2COC2COP(=O)(O)OC2)c(=O)[nH]1 | R35 | - | cytopathic effect / ELISA | 7.8 µM |
| Nc1ccn(C[C@@H](CO)OCP(=O)(O)O)c(=O)n1 | KOS | TK-deficient acyclovir-resistant | plaque count | 2 µM |
| O=c1[nH]c(=O)n([C@H]2C[C@H](O)[C@@H](CO)O2)cc1/C=C/Br | KOS | - | cytopathic effect | 0.01 µg/mL |
| O=c1c2ncn(COC(CO)CO)c2nc2[nH]c(-c3ccc(C(F)(F)F)cc3)cn12 | McIntyre | - | cytopathic effect | 1.92 µg/mL |
| COC(=O)[C@H]1NC(=O)[C@H]2NC(=O)[C@H](NC(=O)[C@@H]3NC(=O)[C@H]4NC(=O)[C@H](NC(=O)[C@H](N)c5ccc(O)c(c5)Oc5cc4cc(O)c5C)[C@H](O)c4ccc(cc4)Oc4cc3cc(c4O)Oc3ccc(cc3)[C@H]2O[C@@H]2C[C@@H](N)[C@@H](O)[C@H](C)O2)c2ccc(O)c(c2)-c2c(O)cc(O)cc21 | KOS | - | cytopathic effect | 120 µM |
| Nc1nc2c(ncn2C[C@@H](CO)CCO)c(=O)[nH]1 | R35 | - | cytopathic effect / ELISA | 0.8 µM |
| CCCCCCCc1cc2cnc(=O)[nH]c2o1 | KOS | - | cytopathic effect | >200 µM |
| COC(=N)[C@]1(n2cc(C)c(=O)[nH]c2=O)C[C@H](O)[C@@H](CO)S1 | - | - | cytopathic effect | 100 µg/mL |
| O=c1[nH]c(=O)n([C@@H]2O[C@H](CO)[C@@H](O)[C@@H]2O)cc1/C=C/Br | VR-3 | - | plaque count | 0.08 µM |
| Nc1nc2c(ncn2CCC(O)CO)c(=O)[nH]1 | R35 | - | cytopathic effect / ELISA | 4.3 µM |
| Nc1nc2c(ncn2C[C@]2(CO)C[C@H]2CO)c(=O)[nH]1 | KOS | - | plaque count | 0.023 µg/mL |
| O=c1c2ncn(COCCO)c2nc2[nH]c(-c3ccc(F)cc3)cn12 | McIntyre | - | cytopathic effect | >16 µg/mL |
| CC1=Nn2c(nnc2-c2cn(-c3ccccc3)nc2-c2ccccc2)SC1 | KOS | - | cytopathic effect | >16 µg/mL |
| O=c1c2ncn(COCCO)c2nc2[nH]c(-c3ccccc3)c(Cc3ccccc3)n12 | F | - | cytopathic effect | 9.6 µg/mL |
| C/C(=N/NC(N)=S)c1ccc(NC(=O)CN2C(=O)c3ccccc3S2(=O)=O)cc1 | KOS | - | cytopathic effect | >100 µM |
| Nc1nc(N)c2ncn([C@@H]3C=C[C@H](CO)[C@@H](O)C3)c2n1 | - | - | cytopathic effect | 0.38 µg/mL |
| Nc1nc2c(ncn2CC[C@@H](O)CO)c(=O)[nH]1 | C42 | - | plaque count | 1 µM |
| Nc1nc2c(ncn2COC(CO)CO)c(=O)[nH]1 | KOS | - | cytopathic effect | 0.03 µM |
| Nc1nc2c(ncn2CC[C@@H](O)CO)c(=O)[nH]1 | C42 | - | plaque count | 0.2 µM |
| CCOP(=O)(CCCN1CC(Cn2c(=O)n(C(=O)c3ccccc3)c(=O)c3ccccc32)N=N1)OCC | - | - | cytopathic effect | 17 µM |
| O=c1[nH]c(=O)n([C@H]2C[C@H](O)[C@@H](CO)O2)cc1/C=C/Br | KOS | TK-deficient acyclovir-resistant | cytopathic effect | 50 µM |
| Nc1nc2c(ncn2CCC(CO)CO)c(=O)[nH]1 | 20 clinical isolates | - | plaque count | 0.6 µg/mL |
| Nc1nc2c(ncn2COC(CO)CO)c(=O)[nH]1 | HU-5 | - | cytopathic effect | 0.014 µM |
| O=C(O)C(O[C@@H]1C=C[C@H](n2cc(F)c(=O)[nH]c2=O)C1)P(=O)(O)O | KOS | - | cytopathic effect | >250 µM |
| CSc1nnc(-c2ccccc2S(=O)(=O)NC(C)C)o1 | KOS | TK-deficient acyclovir-resistant | cytopathic effect | >100 µM |
| Cc1c(-c2ccc(F)cc2)[nH]c2nc3c(ncn3COCCO)c(=O)n12 | F | - | cytopathic effect | 0.384 µg/mL |
| Nc1nc2c(ncn2CC[C@H](O)CO)c(=O)[nH]1 | C42 | - | plaque count | 4 µM |
| CCCCCCCCc1cc2cnc(=O)[nH]c2o1 | KOS | - | cytopathic effect | >200 µM |
| Nc1ncnc2c1ncn2C[C@@H](CO)OCP(=O)(O)O | - | - | cytopathic effect | 0.02 µM |
| Nc1nc2c(ncn2CCCC(CO)CO)c(=O)[nH]1 | C42 | - | plaque count | 0.3 µM |
| Cc1ccc(S(=O)(=O)NNC(=O)c2ccccc2S(=O)(=O)NC(C)C)cc1 | KOS | TK-deficient acyclovir-resistant | cytopathic effect | >100 µM |

Repeating the first 6 entries:

CCCCCCCCCCC#Cc1c[nH]c(=O)[nH]c1=O ; strain: KOS ; read by: cytopathic effect ; result: >40 µM
O=c1[nH]c(=O)n(C[C@]2(CO)C[C@H]2CO)cc1/C=C/Cl ; read by: plaque count ; result: 0.7 µg/mL
Nc1ncnc2c1ncn2[C@@H]1C[C@H](CO)[C@@H](O)[C@@H]1O ; strain: VR-3 ; read by: plaque count ; result: 18 µM
Cc1cn([C@@]2(C#N)C[C@H](O)[C@@H](CO)S2)c(=O)[nH]c1=O ; read by: cytopathic effect ; result: 20 µg/mL
CCCCCCCC/C=C/CCCCCCCC(=O)O ; strain: B2006 (TK-) ; read by: cytopathic effect ; result: >100 µM
Cc1c(O)c(=O)ccn1[C@@H]1CS[C@@H](CO)O1 ; strain: TK- ; read by: cytopathic effect ; result: 85 µM